Positions that govern dimerization of the HIV-1 5' RNA

Data from the supplement of Ye et al. 2022, doi:10.1038/s41594-022-00746-2.

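Randomly mutated transcripts starting with one, two or three G (1G, 2G, 3G), capped or uncapped, were folded for 30 min at 37 °C. Monomer and dimer bands were cut from native gels after folding in high salt (300 mM KCl, 5 mM MgCl2) or low salt (40 mM KCl, 0.1 mM MgCl2). Kdimer compares mutation frequencies in monomer and dimer, corrected for sequencing errors.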

RNA: 5' end of the HIV-1 NL4-3 genome, made in vitro. Positions 1-437 read:
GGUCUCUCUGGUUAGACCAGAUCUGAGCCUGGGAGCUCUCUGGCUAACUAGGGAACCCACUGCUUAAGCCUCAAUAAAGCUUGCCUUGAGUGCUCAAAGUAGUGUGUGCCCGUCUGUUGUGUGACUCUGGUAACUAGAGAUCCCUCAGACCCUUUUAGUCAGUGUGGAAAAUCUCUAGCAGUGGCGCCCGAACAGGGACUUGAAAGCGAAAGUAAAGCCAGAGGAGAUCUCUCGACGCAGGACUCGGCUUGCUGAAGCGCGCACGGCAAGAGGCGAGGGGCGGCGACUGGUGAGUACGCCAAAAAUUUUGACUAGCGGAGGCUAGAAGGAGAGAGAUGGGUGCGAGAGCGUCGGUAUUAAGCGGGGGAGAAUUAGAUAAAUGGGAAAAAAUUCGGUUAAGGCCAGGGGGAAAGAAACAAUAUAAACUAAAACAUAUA

Scale: median log2 Kdimer over the changes at a position; positive = changes inhibit dimerization, negative = changes enhance it. One numbering serves 1G, 2G and 3G. A position is written with its base.

{"position": "U131", "domain": "PAS", "1G uncapped high-salt": 0.09, "1G uncapped low-salt": 0.40, "2G capped high-salt": 0.19, "2G capped low-salt": 0.57}
{"position": "A132", "domain": "PBS", "1G uncapped high-salt": 0.16, "1G uncapped low-salt": 0.00, "2G capped high-salt": -0.11, "2G capped low-salt": 0.01}
{"position": "A133", "domain": "PBS", "1G uncapped high-salt": 0.20, "1G uncapped low-salt": 0.21, "2G capped high-salt": 0.06, "2G capped low-salt": 0.28}
{"position": "C134", "domain": "PBS", "1G uncapped high-salt": 0.15, "1G uncapped low-salt": -0.09, "2G capped high-salt": -0.13, "2G capped low-salt": -0.22}
{"position": "U135", "domain": "PBS", "1G uncapped high-salt": 0.24, "1G uncapped low-salt": -0.06, "2G capped high-salt": 0.20, "2G capped low-salt": -0.11}
{"position": "A136", "domain": "PBS", "1G uncapped high-salt": 0.20, "1G uncapped low-salt": -0.06, "2G capped high-salt": 0.11, "2G capped low-salt": -0.16}
{"position": "G137", "domain": "PBS", "1G uncapped high-salt": 0.26, "1G uncapped low-salt": 0.63, "2G capped high-salt": 0.18, "2G capped low-salt": 0.67}
{"position": "A138", "domain": "PBS", "1G uncapped high-salt": 0.31, "1G uncapped low-salt": 0.56, "2G capped high-salt": -0.01, "2G capped low-salt": 0.50}
{"position": "G139", "domain": "PBS", "1G uncapped high-salt": 0.23, "1G uncapped low-salt": 0.53, "2G capped high-salt": -0.04, "2G capped low-salt": 0.72}
{"position": "A140", "domain": "PBS", "1G uncapped high-salt": 0.27, "1G uncapped low-salt": 0.26, "2G capped high-salt": 0.14, "2G capped low-salt": 0.20}
{"position": "U141", "domain": "PBS", "1G uncapped high-salt": 0.14, "1G uncapped low-salt": 0.20, "2G capped high-salt": -0.07, "2G capped low-salt": 0.19}
{"position": "C142", "domain": "PBS", "1G uncapped high-salt": -0.04, "1G uncapped low-salt": 0.03, "2G capped high-salt": 0.07, "2G capped low-salt": 0.16}
{"position": "C143", "domain": "PBS", "1G uncapped high-salt": 0.06, "1G uncapped low-salt": 0.33, "2G capped high-salt": 0.13, "2G capped low-salt": 0.19}
{"position": "C144", "domain": "PBS", "1G uncapped high-salt": 0.08, "1G uncapped low-salt": -0.02, "2G capped high-salt": 0.02, "2G capped low-salt": 0.18}
{"position": "U145", "domain": "PBS", "1G uncapped high-salt": 0.14, "1G uncapped low-salt": 0.07, "2G capped high-salt": 0.06, "2G capped low-salt": 0.00}
{"position": "C146", "domain": "PBS", "1G uncapped high-salt": 0.04, "1G uncapped low-salt": -0.05, "2G capped high-salt": -0.02, "2G capped low-salt": 0.04}
{"position": "A147", "domain": "PBS", "1G uncapped high-salt": 0.09, "1G uncapped low-salt": 0.10, "2G capped high-salt": 0.01, "2G capped low-salt": -0.07}
{"position": "G148", "domain": "PBS", "1G uncapped high-salt": 0.24, "1G uncapped low-salt": 0.28, "2G capped high-salt": 0.13, "2G capped low-salt": 0.03}
{"position": "A149", "domain": "PBS", "1G uncapped high-salt": 0.33, "1G uncapped low-salt": -0.24, "2G capped high-salt": 0.96, "2G capped low-salt": -0.05}
{"position": "C150", "domain": "PBS", "1G uncapped high-salt": 0.26, "1G uncapped low-salt": 0.32, "2G capped high-salt": 0.15, "2G capped low-salt": 0.61}
{"position": "C151", "domain": "PBS", "1G uncapped high-salt": -0.05, "1G uncapped low-salt": -0.10, "2G capped high-salt": -0.03, "2G capped low-salt": -0.17}
{"position": "C152", "domain": "PBS", "1G uncapped high-salt": -0.05, "1G uncapped low-salt": -0.01, "2G capped high-salt": 0.04, "2G capped low-salt": -0.32}
{"position": "U153", "domain": "PBS", "1G uncapped high-salt": -0.03, "1G uncapped low-salt": 0.04, "2G capped high-salt": 0.10, "2G capped low-salt": 0.17}
{"position": "U154", "domain": "PBS", "1G uncapped high-salt": 0.03, "1G uncapped low-salt": -0.06, "2G capped high-salt": 0.06, "2G capped low-salt": -0.15}
{"position": "U155", "domain": "PBS", "1G uncapped high-salt": 0.07, "1G uncapped low-salt": 0.24, "2G capped high-salt": -0.03, "2G capped low-salt": 0.06}
{"position": "U156", "domain": "PBS", "1G uncapped high-salt": 0.04, "1G uncapped low-salt": -0.20, "2G capped high-salt": 0.02, "2G capped low-salt": -0.17}
{"position": "A157", "domain": "PBS", "1G uncapped high-salt": 0.21, "1G uncapped low-salt": -0.08, "2G capped high-salt": 0.04, "2G capped low-salt": -0.11}
{"position": "G158", "domain": "PBS", "1G uncapped high-salt": -0.04, "1G uncapped low-salt": -0.32, "2G capped high-salt": -0.39, "2G capped low-salt": -0.29}
{"position": "U159", "domain": "PBS", "1G uncapped high-salt": 0.19, "1G uncapped low-salt": -0.06, "2G capped high-salt": -0.38, "2G capped low-salt": -0.29}
{"position": "C160", "domain": "PBS", "1G uncapped high-salt": -0.09, "1G uncapped low-salt": -0.23, "2G capped high-salt": -0.14, "2G capped low-salt": -0.34}